Measured values from several laboratories, pooled; numbers as filed in NIAID ChemDB.

Shared fields: target-level tests; species: Hepatitis C virus; target: NS5B polymerase; endpoint: IC50

Rows are shuffled and stem from different studies.

structure | strain or isolate | result
CC(C)CCN1C(=O)C(C2=NS(=O)(=O)c3ccccc3N2)=C(O)[C@@H]1C(C)C | - | 0.2 µM
O=c1c(C2=NS(=O)(=O)c3ccccc3N2)c(O)c2cc(F)ccc2n1CCC1CC1 | - | 0.1 µM
O=C(O)c1cnc(N(C(=O)c2ccc(Oc3ccc(Cl)cc3)cc2)C2CCCCC2)s1 | - | 4.2 µM
CCCCSc1nc(Nc2ccc(N(CC)CC)cc2)cc(N2CCN(C(=O)c3ccncc3)CC2)n1 | - | 3 µg/mL
CC1(C)CC(=O)C2=C(C1)Nc1ccc(C(=O)c3ccccc3)cc1NC2c1cccc(Cl)c1 | - | >42.7 µM
O=C(O)c1nc(-c2nccn2Cc2ccccc2)[nH]c(=O)c1O | - | >50 µM
O=C(O)c1ccc2c(c1)nc(-c1ccc(OCc3cc(C(=O)N4CCC(O)CC4)ccc3-c3ccc(Cl)cc3)cc1F)n2C1CCCCC1 | - | 0.28 µM
CC1(C)CC(=O)C2=C(C1)Nc1ccc(C(=O)c3ccccc3)cc1NC2c1ccc(Cl)cc1 | - | >42.7 µM
CC(C)CCN1C(=O)C(C2=NS(=O)(=O)c3ccccc3N2)=C(O)[C@@H]1Cc1ccccc1 | - | 3.5 µM
O=C(O)/C=C/c1ccc(NC(=O)C(CC2CCCCC2)NC(=O)c2ccc3c(c2)nc(-c2ccoc2)n3C2CCCCC2)cc1 | - | 0.5–5 µM
CC(C)CCN1C(=O)C(C2=NS(=O)(=O)c3ccccc3N2)=C(O)[C@]1(C)C(C)C | - | 0.25 µM
COc1ccc(N(Cc2c(Cl)cccc2Cl)S(=O)(=O)c2cccc(C#N)c2)cc1C(=O)O | 1b | 0.9 µM
O=C(O)/C=C/c1ccc(NC(=O)C2(NC(=O)c3ccc4c(c3)nc(-c3ccco3)n4C3CCCCC3)CCCC2)cc1 | - | <0.5 µM
O=C(O)c1nc(C2CCCCC2)[nH]c(=O)c1O | - | >200 µM
CC(C)=Cc1nc2cc(C(=O)O)ccc2n1C1CCCCC1 | - | 10 µM
CC(C)CCN1C(=O)C(C2=NS(=O)(=O)c3ccccc3N2)=C(O)[C@@H]1c1ccccc1 | - | 0.3 µM
CCOC(=O)c1ccc(CC)nc1Nc1ccc(N2CCOCC2)cc1 | - | 3 µg/mL
Cc1ccc(OCc2ccccc2)c(NC(=O)c2cc(C(=O)O)nn2CS(=O)(=O)N[C@H]2CCCC[C@@H]2OCc2ccccc2)c1 | - | 0.1–1 µM
CC(NC(=O)c1ccc2c(c1)nc(-c1ccoc1)n2C1CCCCC1)C(=O)Nc1ccc(CCCC(=O)O)cc1 | - | 0.5–5 µM
O=C1CC(c2ccccc2)CC2=C1C(c1ccccc1OCc1ccccc1)Nc1ccccc1N2 | - | >27.34 µM
CC(C)(C)COc1ccccc1NC(=O)c1cc(C(=O)O)nn1CC(=O)N[C@H]1CCCC[C@@H]1OCc1ccccc1 | - | 0.1–1 µM
CC(C)CCN1C(=O)C(C2=NS(=O)(=O)c3ccccc3N2)=C(O)C12CC2 | - | 3.47 µM
CC1(C)CC(=O)C2=C(C1)Nc1ccc(C(=O)c3ccccc3)cc1NC2c1ccc(F)cc1 | - | >42.7 µM
CCc1ccc(C(=O)OCc2ccccc2)c(Nc2ccc(N3CCOCC3)cc2)n1 | - | 3 µg/mL
CCC(C)[C@H]1C(O)=C(C2=NS(=O)(=O)c3ccccc3N2)C(=O)N1CCC(C)C | - | 0.55 µM
CCSc1nc(Nc2ccc(N(CC)CC)cc2)cc(N2CCN(C(=O)c3ncc(C)cn3)CC2)n1 | - | 3 µg/mL
O=C1CC(c2ccccc2)CC2=C1C(c1ccc(Cl)cc1)Nc1ccc(C(=O)c3ccccc3)cc1N2 | - | >42.7 µM
O=C(O)c1ccc2c(c1)nc(-c1ccc(OCc3cc(C(=O)N4CCC(O)CC4)ccc3Cl)cc1F)n2C1CCCCC1 | - | <10 µM
CC1(C)CC(=O)C2=C(C1)Nc1cc(C(=O)c3ccccc3)ccc1NC2c1cccc([N+](=O)[O-])c1 | - | >42.7 µM
CCN(C(=O)c1ccc(C)cc1)c1cc(-c2ccccc2)sc1C(=O)O | - | 3 µM
CC1(C)CC(=O)C2=C(C1)Nc1cccc(Br)c1NC2c1ccc(Cl)cc1Cl | - | 25.6 µM
O=C(O)/C=C/c1ccc(NC(=O)C2(NC(=O)c3ccc4c(c3)nc(-c3ccoc3)n4C3CCCCC3)CCCCC2)cc1 | - | <0.5 µM
O=C(Cn1nc(N(c2ccccc2)c2ccccc2)cc1C(=O)N[C@H]1CCCC[C@@H]1OCc1ccccc1)N[C@H]1CCCC[C@@H]1OCc1ccccc1 | - | 0.1–1 µM
O=C(O)/C=C/c1ccc(NC(=O)C2(NC(=O)c3ccc4c(c3)nc(-c3cccs3)n4C3CCCC3)CCCC2)cc1 | - | 0.5–5 µM
CCC(=O)N1c2ccccc2NC2=C(C(=O)CC(c3ccccc3OCc3ccccc3)C2)C1c1ccccc1 | - | 30.8 µM
C[C@H]1CCC[C@H](C)C1n1c(-c2cccn2C)nc2cc(C(=O)NC3(C(=O)Nc4ccc(/C=C/C(=O)O)cc4)CCCC3)ccc21 | - | 0.5–5 µM
CCCCc1ccc(C(=O)O)c(Nc2ccc(N3CCNCC3)cc2)n1 | - | 3 µg/mL
O=C(O)CNC(=O)c1ccc(NC(=O)C2(NC(=O)c3ccc4c(c3)nc(-c3ccoc3)n4C3CCCCC3)CCCC2)cc1 | - | 0.5–5 µM
O=C(Cn1nc(C(=O)NNc2ccc(O)cc2)cc1C(=O)N[C@H]1CCCC[C@@H]1OCc1ccccc1)N[C@H]1CCCC[C@@H]1OCc1ccccc1 | - | 0.1–1 µM

The last 3 rows once more:

{"structure": "CCCCc1ccc(C(=O)O)c(Nc2ccc(N3CCNCC3)cc2)n1", "result": "3 µg/mL"}
{"structure": "O=C(O)CNC(=O)c1ccc(NC(=O)C2(NC(=O)c3ccc4c(c3)nc(-c3ccoc3)n4C3CCCCC3)CCCC2)cc1", "result": "0.5–5 µM"}
{"structure": "O=C(Cn1nc(C(=O)NNc2ccc(O)cc2)cc1C(=O)N[C@H]1CCCC[C@@H]1OCc1ccccc1)N[C@H]1CCCC[C@@H]1OCc1ccccc1", "result": "0.1–1 µM"}

An empty or dashed field is not shown. Two numbers with a dash give a range or band. ICn: concentration for n% inhibition.